Anti-infective test results gathered from many reports (values: NIAID ChemDB through PubChem).

Common to all: cytotoxicity tests; cell line: H9; endpoint: CC50

Lines come from different laboratories, so protocols vary. An empty or dashed field is not shown. CCn: concentration that lowers growth or viability of the cells by n%.

structure,method,result
O=c1c(O)c(-c2ccc(O)c(O)c2)oc2cc(O)cc(O)c12,-,<4 µg/mL
C=COC(=O)Oc1c(OC)cc([C@@H]2c3cc4c(cc3[C@@H](O)[C@H]3COC(=O)[C@H]23)OCO4)cc1OC,-,0.136 µg/mL
CC(=O)Oc1cc2sc(-c3ccccc3)cc(=O)c2cc1OC(C)=O,-,3 µg/mL
CCCOc1cc2cc[n+](C)c(CC)c2cc1OCCC,-,5.4 µg/mL
c1ccc([C@H]2CN3CCSC3=N2)cc1,-,>>0.1 µM
CC(=O)O[C@@H]1[C@H](OC(=O)C23CCC(C)(C(=O)O2)C3(C)C)c2c(ccc3c(=O)cc(-c4ccccc4)oc23)OC1(C)C,-,>44.6 µM
CCOC(=O)c1ccc(N[C@@H]2c3cc(OC)c(OC)cc3[C@@H](c3cc(OC)c(O)c(OC)c3)[C@H]3C(=O)OC[C@@H]32)cc1,-,0.12 µg/mL
COc1c(OCc2ccccc2)c(OCc2ccccc2)cc(CBr)c1-c1c(CBr)cc(OCc2ccccc2)c(OCc2ccccc2)c1OC,-,30 µM
Oc1cc(O)c2c(c1)O[C@H](c1cc(O)c(O)c(O)c1)[C@H](O)C2,-,1.8 µg/mL
CC(C)c1ccccc1SC1=C(O)CC(CCc2ccccc2)(c2ccccc2)OC1=O,-,76 µM
COc1cc2c(c(OC)c1OC)-c1ccc(OC)c(=O)cc1[C@@H](NC(=O)C(F)(F)F)CC2,-,0.0066 µM
Cc1c2cc(OCc3ccccc3)c(OCc3ccccc3)cc2cc[n+]1C,-,0.171 µg/mL
CC[C@@H](C(=O)[C@@H](C)[C@@H](O)[C@H](C)[C@@H]1O[C@@H]([C@@H](CC)C(=O)O)CC[C@@H]1C)[C@H]1O[C@@]2(C=C[C@@H](O)[C@@]3(CC[C@@](C)([C@H]4CC[C@](O)(CC)[C@H](C)O4)O3)O2)[C@H](C)C[C@@H]1C,-,6.98 µg/mL
BrCc1cc(OCc2ccccc2)c(OCc2ccccc2)c(OCc2ccccc2)c1-c1c(CBr)cc(OCc2ccccc2)c(OCc2ccccc2)c1OCc1ccccc1,-,>100 µM
O=c1cc(-c2ccccc2)[nH]c2c(S)cccc12,-,35 µg/mL
COc1cc([C@@H]2c3cc(O)c(O)cc3[C@H](O)[C@H]3COC(=O)[C@H]23)cc(OC)c1OC,-,9.57 µg/mL
O=C(Oc1cc(O)cc2c1C[C@@H](OC(=O)c1cc(O)c(O)c(O)c1)[C@@H](c1cc(O)c(O)c(O)c1)O2)c1cc(O)c(O)c(O)c1,-,20 µg/mL
Cc1cn([C@H]2C[C@H](N=[N+]=[N-])[C@@H](CO)O2)c(=O)[nH]c1=O,-,1872 µM
Nc1ccc2sc(-c3ccccc3)cc(=O)c2c1,-,7.5 µg/mL
Cc1cn([C@H]2C[C@H](N=[N+]=[N-])[C@@H](CO)O2)c(=O)[nH]c1=O,-,>1000 µM
Oc1cc2c(cc1O)C[NH+]1CCc3cc(O)c(O)cc3C1C2,-,18.13 µg/mL
CC(C)[C@H](NC(=O)OCc1ccccc1)C(=O)N[C@@H](Cc1ccccc1)[C@H](O)[C@@H](O)[C@H](Cc1ccccc1)NC(=O)[C@@H](NC(=O)OCc1ccccc1)C(C)C,trypan blue,>100 µM
COc1cc(/C=C/C(=O)N[C@H]2CCc3cc(OC)c(OC)c(OC)c3-c3ccc(OC)c(=O)cc32)cc(OC)c1O,-,0.18 µM
O=C(O)c1cc(O)cc(O)c1N=Nc1ccc(/C=C/c2ccc(N=Nc3c(O)cc(O)cc3C(=O)O)cc2S(=O)(=O)O)c(S(=O)(=O)O)c1,-,135 µg/mL
COc1ccc(Cc2c3ccc(OC)c(OC)c3cc[n+]2C)cc1OC,-,>100 µg/mL
O=C(O[C@@H]1Cc2c(O)cc(O)cc2O[C@@H]1c1cc(=O)c(O)c2c(O)c(O)c(O)cc2c1)c1cc(O)c(O)c(O)c1,-,25 µg/mL
C[n+]1ccc2cc(O)c(O)cc2c1Cc1ccc(O)c(O)c1,-,>25 µg/mL
O=c1cc(-c2ccc(O)cc2)oc2cc(O[C@@H]3O[C@H](CO)[C@@H](O)[C@H](O)[C@H]3O)cc(O)c12,-,>100 µg/mL
CCc1cc(NCc2nc3c(C)ccc(C)c3o2)c(=O)[nH]c1C,-,>60 µM
CC(=O)Oc1ccc2c(=O)cc(-c3ccccc3)sc2c1,-,45 µg/mL
CC[C@@H]1O[C@@H]([C@]2(C)C[C@@H](C)[C@](O)([C@]3(C)CC[C@@H]([C@@H](O)[C@]4(O)O[C@H](C[C@@]5(O)O[C@@H]([C@@H](C)[C@H](O)C[C@@H]6O[C@H]([C@@H](C)C(=O)O)[C@@H](C)C[C@H]6C)CC[C@@H]5C)[C@@H](C)C[C@H]4C)O3)O2)CC[C@@]1(C)O,-,13.5 µg/mL
CC(C)=CCC[C@@]1(C)[C@@H]2CC[C@]3(C)Oc4cc(C)c(C(=O)O)c(O)c4[C@H]1[C@H]23,-,34 µg/mL
Cc1cn([C@H]2C[C@H](N=[N+]=[N-])[C@@H](CO)O2)c(=O)[nH]c1=O,-,60 µM
CC[C@@H](C(=O)[C@@H](C)[C@@H](O)[C@H](C)CCc1ccc(C)c(O)c1C(=O)O)[C@H]1O[C@](CC)([C@H]2CC[C@](O)(CC)[C@H](C)O2)C[C@@H]1C,-,48.8 µg/mL
CCOCc1cc(=O)c2ccc3c(c2o1)[C@@H](OC(=O)C12CCC(C)(C(=O)O1)C2(C)C)[C@@H](OC(=O)C(C)C)C(C)(C)O3,-,>43.9 µM
COc1cc2c(cc1OC)CC[NH+]=C2,-,23.6 µg/mL
CC(C)=CCC/C(C)=C/COc1cc2cc[n+](C)c(Cc3ccc(O)c(O)c3)c2cc1OC/C=C(\C)CCC=C(C)C,-,17.95 µg/mL
Cc1ccnc2c1NC(=O)c1cccnc1N2C1CC1,-,>290 µM
Cc1cn([C@H]2C[C@H](N=[N+]=[N-])[C@@H](CO)O2)c(=O)[nH]c1=O,MTT,>0.08 µg/mL
Cc1cn([C@H]2C[C@H](F)[C@@H](CO)O2)c(=O)[nH]c1=O,-,1000 µM
O=C(O[C@@H]1Cc2c(O)cc(O)c([C@H]3c4c(O)cc(O)cc4O[C@H](c4cc(O)c(O)c(O)c4)[C@@H]3O)c2O[C@@H]1c1cc(O)c(O)c(O)c1)c1cc(O)c(O)c(O)c1,-,28 µg/mL
COc1cc2c(c(OC)c1O)-c1ccc(SC)c(=O)cc1[C@@H](NC(C)=O)CC2,-,0.052 µM
O=c1cc(-c2ccccc2)sc2cc(O)ccc12,-,40 µg/mL
CC(C)[C@H](NC(=O)OCc1ccccn1)C(=O)NC(Cc1ccccc1)C(O)C(F)(F)C(N)Cc1ccccc1,trypan blue,130 µM
CC(C)=CCC/C(C)=C/CN1CCc2cc(O)c(O)cc2[C@H]1Cc1ccc(O)c(O)c1,-,24.59 µg/mL
O=C(/C=C/c1ccc(O)c2c1[C@H](C(=O)O[C@H](Cc1ccc(O)c(O)c1)C(=O)O)[C@@H](c1ccc(O)c(O)c1)O2)O[C@H](Cc1ccc(O)c(O)c1)C(=O)O,-,>220 µM
COc1cc2c(c(OC)c1OC)-c1ccc(=O)c(OC)cc1[C@@H](NC(=O)C(F)(F)F)CC2,-,0.66 µM
CC[C@H](C)[C@@H](C(=O)O)n1sc2ccccc2c1=O,-,>100 µM
CC(C)=CCC/C(C)=C/CN1CCc2cc(O)c(O)cc2[C@H]1C,-,20.23 µg/mL
CC(C)[C@H](NC(=O)OCCN1CCCC1)C(=O)N[C@@H](Cc1ccccc1)[C@@H](O)[C@H](Cc1ccccc1)NC(=O)[C@@H](NC(=O)OCc1ccccc1)C(C)C,trypan blue,21 µM
CC(C)c1cc(=O)c2ccc3c(c2o1)[C@@H](OC(=O)C12CCC(C)(C(=O)O1)C2(C)C)[C@@H](OC(=O)C12CCC(C)(C(=O)O1)C2(C)C)C(C)(C)O3,-,33.4 µM
COC1CCC(OC2CC(C3OC(O)(CO)C(C)CC3C)OC2C2(C)CCC(C3(C)CCC4(CC(O)C(C)C(C(C)C5OC(O)(CC(=O)O)C(C)C(OC6CCC(OC)C(C)O6)C5OC)O4)O3)O2)OC1C,-,>100 µg/mL

The first 6 rows once more:

structure,method,result
O=c1c(O)c(-c2ccc(O)c(O)c2)oc2cc(O)cc(O)c12,-,<4 µg/mL
C=COC(=O)Oc1c(OC)cc([C@@H]2c3cc4c(cc3[C@@H](O)[C@H]3COC(=O)[C@H]23)OCO4)cc1OC,-,0.136 µg/mL
CC(=O)Oc1cc2sc(-c3ccccc3)cc(=O)c2cc1OC(C)=O,-,3 µg/mL
CCCOc1cc2cc[n+](C)c(CC)c2cc1OCCC,-,5.4 µg/mL
c1ccc([C@H]2CN3CCSC3=N2)cc1,-,>>0.1 µM
CC(=O)O[C@@H]1[C@H](OC(=O)C23CCC(C)(C(=O)O2)C3(C)C)c2c(ccc3c(=O)cc(-c4ccccc4)oc23)OC1(C)C,-,>44.6 µM